Test results taken from article PMC5390082 (Scientific Reports, 2015).

Target: T1, Trifunctional enzyme (TFP), ECHA/ECHB, immunopurified from human macrophage extract (human (endogenous in THP-1), UniProt P40939 37-763; P55084 34-474)
T1 construct: also called immunopurified human TFP
Test: SPR

B1: Mycobacterium tuberculosis protein tyrosine phosphatase PtpA D126A (enzyme)
chain: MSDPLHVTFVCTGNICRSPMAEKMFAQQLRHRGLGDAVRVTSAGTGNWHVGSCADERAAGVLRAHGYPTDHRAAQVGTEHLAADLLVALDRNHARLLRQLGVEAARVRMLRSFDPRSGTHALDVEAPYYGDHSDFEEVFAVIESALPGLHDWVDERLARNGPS
- binding result: binds
